Compound potency records, mixed from different reports. Data source: NIAID ChemDB in PubChem.

All rows: whole-cell or culture tests

Inhibition is in % at the dose shown (toxicity tests: loss of growth or viability).

smiles	changes	cells	method	read-out	strain or isolate	agent	dose	result
CC[C@H]1OC(=O)[C@H](C)C(=O)[C@H](C)[C@@H](O[C@@H]2O[C@H](C)C[C@H](N(C)C)[C@H]2O)[C@@]2(C)C[C@@H](C)C(=NC(C)=O)[C@H](C)C(OC/C(=C\c3ccccc3)CO2)[C@]1(C)O				MIC	7701 (erythromycin-resistant-MEF)	Streptococcus pneumoniae		0.25 µg/mL
Nc1ccn(C(CF)CCCO)c(=O)n1		VERO	cytopathic effect	EC50		Tacaribe virus		>50 µg/mL
NC(=Nc1ccccc1)c1ccc(N2CCN(c3ccc(C(N)=Nc4ccccc4)cc3)CC2)cc1			ATP	EC50		Pneumocystis carinii		0.116 µg/mL
O=c1[nH]c(=O)n([C@@H]2O[C@H](CO)[C@@H](O)[C@@H]2O)cc1/C=C/Br				MIC	WT-20	Herpes simplex virus		1000 µg/mL
CC(C)C[C@@H]1NC(=O)CNC(=O)[C@@H]2CCCN2C(=O)[C@H](CC(N)=O)NC(=O)[C@H](C)NC(=O)[C@H](Cc2ccc(O)cc2)NC(=O)[C@H]2CCCC2C1=O				zone		Pseudomonas aeruginosa	6 µg/mL	28 mm
O=C(O)c1cc(S(=O)(=O)[O-])ccc1O		Human embryonic lung cells	cytopathic effect	inhibition	TYPE 3	Adenovirus	50 µg/mL	30%
C=Cc1cn([C@@H]2O[C@H](CO)[C@@H](O)[C@@H]2O)c(=O)[nH]c1=O				MIC	WT-20	Herpes simplex virus		100 µg/mL
CC[C@H]1OC(=O)[C@H](C)C(=O)[C@H](C)[C@@H](O[C@@H]2O[C@H](C)C[C@H](N(C)C)[C@H]2O)[C@@]2(C)C[C@@H](C)C(=NC(C)=O)[C@H](C)C(OC/C(=C\C=C\c3ccccc3)CO2)[C@]1(C)O				MIC	700906 (erythromycin-resistant-ERM)	Streptococcus pneumoniae		1 µg/mL
Cc1nc2ccc(F)cn2c1C(=O)NCc1ccc(C2CCN(c3ccc(OC(F)(F)F)cc3)CC2)c(F)c1			fluorescence	inhibition		Mycobacterium avium	0.011 µM	85%
CCc1ccc(C(=O)NS(=O)(=O)c2ccccc2O)cc1		Human foreskin fibroblasts		MIC90		Toxoplasma gondii		>0.25 µM
CS(=O)(=O)Nc1ccc(NC(=O)COc2ccc(Cl)cc2C(=O)c2ccccc2)cc1	RT-K103N	HeLa + HELA CD4+	β-galactosidase	fold resistance	HXB2	HIV-1		~10
O=S(=O)(O)c1ccc2cc(O)c(S(=O)(=O)O)cc2c1		Human amnion AV3 cells	cytopathic effect	inhibition		Herpes simplex virus	5 µg/mL	0%
Nc1nc2c(ncn2CCCC(O)CF)c(=O)[nH]1		VERO	cytopathic effect	EC50		Tacaribe virus		>200 µg/mL
CCC[C@H](O)C[C@@H]1CC[C@H](C)CCCCC(=O)N(C)[C@@H](Cc2ccc(OCCO)cc2)C(=O)O1				MIC	ERG26	Saccharomyces cerevisiae		12.5 µg/mL
NC(=NCC(=O)O)c1ncn([C@@H]2O[C@H](CO)[C@@H](O)[C@H]2O)n1		VERO	cytopathic effect	EC50	Sicilian	Sandfly fever virus		566 µg/mL
Brc1ccc(Cn2ccc3nc(-c4ccccc4)nc-3c2)cc1		MDBK	ELISA	EC50	3435 (TYPE 2)	Bovine viral diarrhea virus		0.2 µM
C=C1COC2[C@@H](C)C(=NC(C)=O)[C@H](C)C[C@@](C)(OC1)[C@H](O[C@@H]1O[C@H](C)C[C@H](N(C)C)[C@H]1O)[C@@H](C)C(=O)[C@@H](C)C(=O)O[C@H](CC)[C@@]2(C)O				MIC	7701 (erythromycin-resistant-MEF)	Streptococcus pneumoniae		0.5 µg/mL
Cc1ccn2c(C(=O)NCc3ccc(N4CCN(c5ccc(OC(F)(F)F)cc5)[C@@H](C)C4)cc3)c(C)nc2c1			fluorescence	inhibition		Mycobacterium avium	0.036 µM	85%
CCCCCCCCCN=C(N)c1ccc(N2CCN(c3ccc(C(N)=NCCCCCCCCC)cc3)CC2)cc1			ATP	EC50		Pneumocystis carinii		0.284 µg/mL
Cc1ccc2ncnc(Nc3ccc(Cl)c(Cl)c3)c2c1		HFF	plaque count	inhibition	AD169-GFP	Human cytomegalovirus	10 µM	100%
CCC(CC)[C@H](NC(C)=O)[C@@H]1[C@H](O)[C@@H](C(=O)O)C[C@H]1N=C(N)N		MDCK		EC50	Influenza A/Johannesburg/33/94 (H3N2)	Influenza A virus		0.16 µM
Cc1cc(S(N)(=O)=O)ccc1NC(=O)COc1ccc(Cl)cc1C(=O)c1cccc(C#N)c1	RT-V108I Y181C	HeLa + HELA CD4+	β-galactosidase	fold resistance	HXB2	HIV-1		~1
O=S(=O)([O-])c1ccc2c(S(=O)(=O)[O-])cc(S(=O)(=O)[O-])cc2c1		Human embryonic lung cells	cytopathic effect	inhibition	TYPE 3	Adenovirus	50 µg/mL	80%
CCCc1cc(=O)oc2cc(OC(=O)CC)c3c(c12)OC(C)(C)C=C3		CV-1	virus yield	EC50	Chicago-1	Measles virus		<2 µg/mL
Cc1ccc(C(=O)Nc2ccc(S(=O)(=O)O)c3cc(S(=O)(=O)O)cc(S(=O)(=O)O)c23)cc1NC(=O)c1cccc(NC(=O)Nc2cccc(C(=O)Nc3cc(C(=O)Nc4ccc(S(=O)(=O)O)c5cc(S(=O)(=O)O)cc(S(=O)(=O)O)c45)ccc3C)c2)c1		Human conjunctiva cells	cytopathic effect	inhibition		Herpes simplex virus	50 µg/mL	100%
C#C[C@H](O)C1=C[C@@H](n2cnc3c(N)ncnc32)[C@H](O)[C@@H]1O		VERO	cytopathic effect	EC50		Tacaribe virus		>50 µg/mL
CON=C1C[C@H](n2cc(C)c(=O)[nH]c2=O)O[C@@H]1CO		VERO	cytopathic effect	EC50		Semliki Forest virus		>200 µg/mL
NC(=O)CC(N=C(N)c1ncn([C@@H]2O[C@H](CO)[C@@H](O)[C@H]2O)n1)C(=O)O		VERO	cytopathic effect	EC50	Sicilian	Sandfly fever virus		484 µg/mL
CN1CCC(N(C)C(=O)c2c[n+]3c(cn2)CN=C3c2ccc(C(F)(F)F)cc2)CC1			SYBR Green	EC50		Plasmodium yoelii		>10 µM
Cc1cn(C(CF)CCCO)c(=O)[nH]c1=O		VERO	cytopathic effect	EC50		Tacaribe virus		>200 µg/mL
Cn1cc(C(=O)NCc2ccc(Cl)cc2)c(=O)c2cc(CN3CCOCC3)ccc21		HFF	plaque count	inhibition	WA	Human cytomegalovirus	6.5 µM	90%
CN(C)c1cccc2c(S(=O)(=O)Nc3ccc(NC(=O)C(C)(C)CO)cc3)cccc12			plaque count	EC50	Priscott	Rat cytomegalovirus		0.019 µM
O=C(N[C@@H](C(=O)N1CCC[C@H]1c1ncc(-c2ccc(-c3ccc(-c4cnc([C@@H]5CCCN5C(=O)[C@H](NC(=O)C5CC5)c5ccccc5)s4)cc3)cc2)s1)c1ccccc1)C1CC1	V153M+M202L+M265V	Huh7.5	luciferase / reporter gene	fold resistance	genotype 1b	Hepatitis C virus		1
CCCc1cc(=O)oc2cc(OC(=O)C(C)(C)C)c3c(c12)OC(C)(C)C=C3		CV-1	virus yield	EC90	Chicago-1	Measles virus		0.3 µg/mL
O=c1[nH]c(=O)n([C@H]2C[C@H](O)[C@@H](CO)O2)cc1I				MIC	WT-34	Herpes simplex virus		3.2 µg/mL
Nc1ccc2c(O)cc(S(=O)(=O)[O-])cc2c1S(=O)(=O)[O-]		Human amnion AV3 cells	cytopathic effect	inhibition		Herpes simplex virus	5 µg/mL	0%
CCCCCCCCCCCCOC(=O)[C@]1(O)C[C@@H](O)[C@@H](O)[C@H](OC(=O)/C=C/c2ccc(O)c(O)c2)C1			absorbance	MIC50	UMIP 1142.76	Aspergillus parasiticus		750 µg/mL
CN1CCN(C)C1c1ccc(N2CCN(c3ccc(C4N(C)CCN4C)cc3)CC2)cc1			ATP	EC50		Pneumocystis carinii		>100 µg/mL
Cc1cn2c(C(=O)NCc3ccc(Oc4cccc(C(F)(F)F)c4)cc3)c(C)nc2s1			fluorescence	inhibition		Mycobacterium avium	0.61 µM	85%
CC[C@@H](O)C1=C[C@@H](n2cnc3c(N)ncnc32)[C@H](O)[C@@H]1O		VERO	cytopathic effect	EC50		Tacaribe virus		>50 µg/mL
Cc1cc(C#N)cc(C(=O)c2cc(Cl)ccc2OCC(=O)Nc2ccc(S(N)(=O)=O)nc2C)c1	RT-L100I	HeLa + HELA CD4+	β-galactosidase	EC50	HXB2	HIV-1		<0.01 µM
CCCc1cc(=O)oc2cc(OS(=O)(=O)c3ccc(C)cc3)cc(O)c12		CV-1	cytopathic effect	EC50	X-1108	Measles virus		0.3 µg/mL
Cc1cc(N2CCS(=O)CC2)ccc1NC(=O)COc1ccc(Cl)cc1C(=O)c1cccs1	RT-K103N Y181C	HeLa + HELA CD4+	β-galactosidase	fold resistance	HXB2 (RT-K103N Y181C) Recombinant	HIV-1		~100
O=S(=O)([O-])c1cc(O)c2ccccc2c1		Human conjunctiva cells	cytopathic effect	inhibition		Herpes simplex virus	10 µg/mL	0%
Nc1ncnc2c1ncn2[C@@H](C=O)O[C@@H](C=O)COP(=O)(O)OP(=O)(O)OP(=O)(O)O		GHOST	luciferase	EC50		SIV		71.5 µM
CCCc1cc(=O)oc2cc(OS(=O)(=O)c3ccc(C)cc3)cc(OS(=O)(=O)c3ccc(C)cc3)c12		CV-1	cytopathic effect	EC50	Edmonston	Measles virus		5 µg/mL
CCN(CC)c1ccc(C(=O)NC(=O)c2ccccc2)cc1		Human foreskin fibroblasts		MIC90		Toxoplasma gondii		>0.25 µM
CCN=C(N)c1ccc(N2CCN(c3ccc(C(N)=NCC)cc3)CC2)cc1			ATP	EC50		Pneumocystis carinii		0.542 µg/mL
CO/N=C1\CN(c2nc3c(cc2F)c(=O)c(C(=O)O)cn3C2CC2)CC1CN				MIC50	13 strains	Escherichia coli		0.031 µg/mL
N#CC(c1ccc(Cl)cc1)c1c(Cl)cc(-n2ncc(=O)[nH]c2=O)cc1Cl				inhibition	RH	Toxoplasma gondii	0.01 µg/mL	99.9%
CN=C(N)c1ncn([C@@H]2O[C@H](CO)[C@@H](O)[C@H]2O)n1		VERO	cytopathic effect	EC50	Sicilian	Sandfly fever virus		104 µg/mL
CC[C@H]1OC(=O)[C@H](C)C(=O)[C@H](C)[C@@H](O[C@@H]2O[C@H](C)C[C@H](N(C)C)[C@H]2O)[C@@]2(C)C[C@@H](C)C(=NC(C)=O)[C@H](C)C(OC/C(=C\C=C\c3cccnc3)CO2)[C@]1(C)O				MIC	7701 (erythromycin-resistant-MEF)	Streptococcus pneumoniae		0.25 µg/mL
Cc1cc(-c2ccc(N=Nc3ccc4c(S(=O)(=O)O)cc(S(=O)(=O)O)c(N)c4c3O)c(C)c2)ccc1N=Nc1ccc2c(S(=O)(=O)O)cc(S(=O)(=O)O)c(N)c2c1O		Human embryonic lung cells	cytopathic effect	inhibition	TYPE 3	Adenovirus	5 µg/mL	10%
CCc1ccc(NC(=O)CC(=O)Nc2ccccc2O)cc1		Human foreskin fibroblasts		MIC50		Toxoplasma gondii		>0.125 µM
O=C(Nc1ccc2c(O)c(N=Nc3ccc(N=Nc4ccc(S(=O)(=O)O)cc4)cc3)c(S(=O)(=O)O)cc2c1)c1ccccc1		Human amnion AV3 cells	cytopathic effect	inhibition		Herpes simplex virus	50 µg/mL	40%
CCCCCCCCN=C(N)c1ncn([C@@H]2O[C@H](CO)[C@@H](O)[C@H]2O)n1		VERO	cytopathic effect	EC50	Sicilian	Sandfly fever virus		339 µg/mL
CCCN=C(N)c1ccc(N2CCN(c3ccc(C(N)=NCCC)cc3)CC2)cc1			ATP	EC50		Pneumocystis carinii		1.6 µg/mL
O=C(Nc1cc(S(=O)(=O)[O-])cc2cc(S(=O)(=O)[O-])ccc12)c1ccccc1		Human amnion AV3 cells	cytopathic effect	inhibition		Rhinovirus	50 µg/mL	0%
Cc1ccn2c(C(=O)NCc3ccc(-c4ccc(OCC(F)(F)F)cc4)c(F)c3)c(C)nc2c1			fluorescence	inhibition		Mycobacterium avium	0.043 µM	85%
CCCCCN=C(N)c1ccc(N2CCN(c3ccc(C(N)=NCCCCC)cc3)CC2)cc1			ATP	EC50		Pneumocystis carinii		0.001 µg/mL
CCc1nc2ccc(Cl)cn2c1C(=O)NCc1ccc(C2CCN(c3ccc(OCC4CC4)nc3)CC2)c(F)c1.Cl			fluorescence	inhibition		Mycobacterium avium	0.046 µM	85%
Nc1ncnc2c1ncn2[C@@H]1C=C(CO)[C@@H](O)[C@H]1O		VERO	cytopathic effect	EC50		Tacaribe virus		1.5 µg/mL
Cc1cc(C#N)cc(C(=O)c2cc(Cl)ccc2OCC(=O)Nc2cnc(S(N)(=O)=O)cc2C)c1	RT-K103N V108I	HeLa + HELA CD4+	β-galactosidase	fold resistance	HXB2	HIV-1		~1
O=C(NC(=O)c1ccccc1O)Nc1ccncc1		Human foreskin fibroblasts		MIC50		Toxoplasma gondii		>0.25 µM

A number after MIC or MFC names an inhibition level or a share of isolates. Lines come from different laboratories, so protocols vary. Zones are inhibition diameters on agar. Blank or dashed fields: not listed here. ECn: concentration that inhibits the pathogen or its effect by n%. Fold resistance has wild type as its base.